# For some of these results: HELM strings list residues between dots; [ac] is acetyl, [am] amide, other brackets name non-standard units.
# Tests used:
# [1] = general procedure: Fmoc solid-phase peptide synthesis; Rink amide resin; DIC/OxymaPure; conditions: for final HPLC purity: 220 nm
# [2] = Fmoc solid-phase peptide synthesis; Rink amide resin; DIC/OxymaPure; conditions: whole synthesis, 220 nm
Substance,final HPLC purity ([1]; whole synthesis) [%],final HPLC purity ([1]; lipidation step) [%],further results
Ac –I E Y E I K K L E E V A K K L E E S L - NH2,99.2,,
Ac –IEYEIKKLEEVAKKLEESLIDLQEL - NH2,,,final HPLC purity [2]: 98.5%
PEPTIDE1{[ac].D.I.S.G.I.N.A.S.V.V.N.I.Q.K.E.I.D.R.L.N.E.V.A.K.N.L.N.E.S.L.I.D.L.Q.E.L.G.S.G.S.G.C.[am]}$$$$V2.0,,95.4,"difficulty met ([1]; whole synthesis): Technical issues encountered during synthesis, purification, and analysis of HRC and HRC-L peptides"
PEPTIDE1{[ac].D.I.S.Q.I.N.A.S.V.V.N.I.E.Y.E.I.K.K.L.E.E.V.A.K.K.L.E.E.S.L.I.D.L.Q.E.L.G.S.G.S.G.C.[am]}$$$$V2.0,,98.4,
PEPTIDE1{[ac].D.I.S.Q.I.N.A.S.V.V.N.I.E.Y.E.I.K.K.L.E.E.V.A.K.K.L.E.E.S.L.I.D.L.Q.E.L.[am]}$$$$V2.0,99.3,,
PEPTIDE1{[ac].P.D.V.D.L.G.D.I.S.Q.I.N.A.S.V.V.N.I.E.Y.E.I.K.K.L.E.E.V.A.K.K.L.E.E.S.L.I.D.L.Q.E.L.[am]}$$$$V2.0,96.9,,
PEPTIDE1{[ac].S.I.D.Q.I.N.A.T.F.V.D.I.E.Y.E.I.K.K.L.E.E.V.A.K.K.L.E.E.S.Y.I.D.L.K.E.L.G.S.G.S.G.C.[am]}$$$$V2.0,,99.8,
PEPTIDE1{[ac].S.I.D.Q.I.N.A.T.F.V.D.I.E.Y.E.I.K.K.L.E.E.V.A.K.K.L.E.E.S.Y.I.D.L.K.E.L.[am]}$$$$V2.0,99.8,,
PEPTIDE1{[ac].S.L.D.Q.I.N.V.T.F.L.D.L.E.Y.E.M.K.K.L.E.E.A.I.K.K.L.E.E.S.Y.I.D.L.K.E.L.[am]}$$$$V2.0,95.0,,
